Compound potency records, mixed from different reports. Data source: NIAID ChemDB in PubChem.

Shared fields: tests on isolated targets; species: Hepatitis C virus; protein: NS3 protease; endpoint: IC50

ICn: concentration for n% inhibition. Conditions beyond the fields shown may differ between rows.

SMILES,result
CC(=O)N[C@@H](CC(=O)O)C(=O)N[C@H](CCC(=O)O)C(=O)N[C@H](C(=O)N[C@H](C(=O)N1C[C@H](OCc2ccc3ccccc3c2)C[C@@H]1C(=O)NC1(C(=O)O)CC1)C(C)C)C1CCCCC1,0.014 µM
CSCC[C@H](NC(=O)[C@H](CCC(=O)O)NC(=O)[C@@H](N)CC(=O)O)C(=O)N[C@@H](CCC(=O)O)C(=O)N[C@@H](CCC(=O)O)C(=O)NC1(C(=O)O)CCCC1,9 µM
O=C(NCCOc1ccc(Oc2ccccc2)cc1)c1c(O)cc(O)c([N+](=O)[O-])c1O,32.8 µg/mL
CC[C@H](NC(=O)[C@@H](NC(=O)[C@@H](NC(=O)[C@H](CC(=O)O)NC(=O)[C@@H](N)CCC(=O)O)C(C)C)C(C)C)C(=O)N[C@H](CS)C(=O)O,194 µM
CC[C@H](C)[C@H](NC(=O)[C@H](CC(C)C)NC(=O)[C@@H](CC(C(=O)O)C(=O)O)NC(=O)[C@H](CC(=O)O)NC(C)=O)C(=O)N[C@@H](CC1CCCCC1)C(=O)N[C@@H](CS)C(=O)O,0.0015 µM
CC(C)C[C@H](NC(=O)C1Cc2ccccc2N1)C(=O)N[C@@H](CC(F)F)C(=O)C(=O)O,>100 µM
O=C1C=C2C(=CCOC2O)O1,17.4 µM
CSCC[C@H](NC(=O)CCC(=O)O)C(=O)N[C@@H](CCC(=O)O)C(=O)N[C@@H](CCC(=O)O)C(=O)N[C@@H](CS)C(=O)O,77 µM
O=C(NCCOc1ccc(Oc2ccccc2)cc1)c1c(O)cc(O)c([N+](=O)[O-])c1O,76.9 µM
CC(=O)N[C@H](C(=O)N[C@H](C(=O)N1C[C@H](OCc2cccc3ccccc23)C[C@H]1C(=O)NC1(C(=O)O)CC1)C(C)C)C1CCCCC1,7.4 µM
N[C@@H](CC(=O)O)C(=O)N[C@@H](CCC(=O)O)C(=O)N[C@H](C(=O)N[C@@H](CCC(=O)O)C(=O)N[C@@H](CC1CCCCC1)C(=O)N[C@H](CS)C(=O)O)C(c1ccccc1)c1ccccc1,3.4 µM
CC(C)C[C@H](NC(=O)C1Cc2ccc(OCC(=O)O)cc2N1)C(=O)N[C@@H](CC(F)F)C(=O)C(=O)O,>100 µM
O=C(Nc1ccc(Oc2ccccc2)cc1)c1c(O)cc(O)c([N+](=O)[O-])c1O,22.2 µM
CC[C@H](C)[C@H](NC(=O)[C@H](CC(C)C)NC(=O)[C@H](CCC(=O)O)NC(=O)[C@@H](N)CC(=O)O)C(=O)N[C@@H](CC1CCCCC1)C(=O)N[C@@H](CS)C(=O)O,0.06 µM
CCCCCCCCCCCCCCCCC/C(=C1\SC(=S)N(CC(=O)O)C1=O)c1ccccc1,6.4 µg/mL

2 of the rows above, restated:

SMILES | result
CC(C)C[C@H](NC(=O)C1Cc2ccc(OCC(=O)O)cc2N1)C(=O)N[C@@H](CC(F)F)C(=O)C(=O)O | >100 µM
N[C@@H](CC(=O)O)C(=O)N[C@@H](CCC(=O)O)C(=O)N[C@H](C(=O)N[C@@H](CCC(=O)O)C(=O)N[C@@H](CC1CCCCC1)C(=O)N[C@H](CS)C(=O)O)C(c1ccccc1)c1ccccc1 | 3.4 µM